# Data as given in ChEMBL document CHEMBL1629609, “Phenotypic and enzymatic comparative analysis of the novel KPC variant KPC-5 and its evolutionary variants, KPC-2 and KPC-4” (Antimicrob Agents Chemother, 2009).
# Test system: Escherichia coli
# Assay: Ratio of MIC for Escherichia coli TOP10 harboring beta-lactamase KPC-2 to MIC for Escherichia coli TOP10 harboring beta-lactamase KPC-4
# Format: functional
smiles,measurement,value
CCN1CCN(C(=O)N[C@@H](C(=O)N[C@@H]2C(=O)N3[C@@H]2SC(C)(C)[C@@H]3C(=O)O)c2ccccc2)C(=O)C1=O [PIPERACILLIN],Ratio,4
